Measured values from several laboratories, pooled; numbers as filed in NIAID ChemDB.

Common to all: cytotoxicity tests; measure: CC50

CCn is the concentration with n% toxicity to the cells.

compound,cells,read by,conditions,result
Nc1nc(Cl)nc2c1ncn2[C@@H]1O[C@H](CO)[C@@H](O)[C@H]1O,MDBK,,,<50 µM
C=C[C@]1(C)C=C2C(=O)c3c(NC=O)cccc3C(C)(C)[C@H]2C[C@H]1O,IMR90,,,>100 µM
CC(C)C[C@@H]1NC(=O)[C@H](Cc2c[nH]c3ccccc23)NC(=O)[C@@H](CCCCN)NC(=O)[C@H](CO)NC(=O)[C@H](C(C)C)NC(=O)[C@@H](CC(C)C)NC1=O,Lung carcinoma cells,MTT,,>30 µM
OC[C@H]1O[C@@H](n2cnc3c(NC4CCCCCC4)ncnc32)[C@H](O)[C@@H]1O,Sheep chondrocytes G81092,MTT,,126 µM
CC(C)(C)OC(=O)NC1N=C(c2ccccc2)c2ccccc2NC1=O,HEP-2,,,4.3 µM
Nc1nc(N)c2ncn(C[C@@H](CO)OCP(=O)(O)O)c2n1,HepG2 2.2.15,,,>100 µM
[2H][C@]1(n2ccc3c(N)nc(Cl)nc32)C[C@H](O)[C@@](C#C)(CO)O1,MT4-GFP,luminescence,,>42 µM
CO[C@H]1/C=C/O[C@@]2(C)Oc3c(C)c(O)c4c(O)c(c(/C=N/N5CCN(C)CC5)c(O)c4c3C2=O)NC(=O)/C(C)=C\C=C\[C@H](C)[C@H](O)[C@@H](C)[C@@H](O)[C@@H](C)[C@H](OC(C)=O)[C@@H]1C,Colorectal carcinoma,MTT,,>30 µM
Cn1c2ccccc2c2c3c(c4c5ccccc5n(CCC#N)c4c21)CNC3=O,CD4+ T CELLS,,,31 µM
C(=N\Nc1nncs1)/c1c[nH]c2ccccc12,Fibroblast L929 cell line,MTT,24 h,62.68 µg/mL
Nc1ncnc2c1ncn2CCOCP(=O)(O)O,Primary duck hepatocytes,,,>100 µM
COC(=O)/C(C)=C/C=C/[C@@H](C)[C@H]1CC[C@@]2(C)C3CC[C@H]4C(C)(C)C(=O)CC[C@]4(C)[C@@]3(O)CC[C@]12C,P-388,,,>40 µM
C(=N\Nc1nncs1)/c1cn(CC2CCCCC2)c2ccccc12,Fibroblast L929 cell line,MTT,24 h,>100 µg/mL
CC(C)C[C@@H]1NC(=O)[C@H](Cc2c[nH]c3ccccc23)NC(=O)[C@@H](CCCCN)NC(=O)CNC(=O)[C@H](C(C)C)NC(=O)[C@@H](CC(C)C)NC1=O,Colorectal carcinoma,MTT,,>30 µM
[2H][C@]1(n2cnc3c(N)nc(F)nc32)C[C@H](O)[C@@](C#C)(CO)O1,MT4-GFP,luminescence,,>42 µM
O=C1CN=C(c2ccc[nH]2)c2cc(Cl)ccc2N1,P4,,,3.36 µM
Cc1cn([C@H]2C[C@H](N=[N+]=[N-])[C@@H](CO)O2)c(=O)[nH]c1=O,MT4-GFP,luminescence,,>8.4 µM
Nc1ccn([C@H]2CC[C@@H](CO)O2)c(=O)n1,PBM,XTT,,>10 µM
O=C(Nc1cccc(Cl)c1Cl)NC1N=C(c2ccccc2)c2ccccc2NC1=O,HEP-2,,,2 µM
[2H]C#C[C@]1(CO)O[C@@H](n2cnc3c(N)nc(F)nc32)C[C@@H]1O,MT4-GFP,luminescence,,>42 µM
OC[C@H]1O[C@@H](n2cnc3c(NC4CCCCCC4)nc(Cl)nc32)[C@H](O)[C@@H]1O,Sheep chondrocytes G81092,MTT,,100 µM
C=C[C@@H](O)C1=C[C@@H](n2cnc3c(N)ncnc32)[C@H](O)[C@@H]1O,P4,,,>69 µM
OC[C@@H]1C[C@@H](O)[C@H](n2cnc3c(NC4CCCCC4)nccc32)O1,Sheep chondrocytes G81092,MTT,,>400 µM
Nc1nccc2c1ncn2[C@@H]1C[C@H](CO)[C@@H](O)[C@H]1O,P4,,,>37 µM
COC(=O)/C(C)=C/C=C/[C@@H](C)C1CC[C@@]2(C)[C@@H]3CC[C@H]4C(C)(C)C(=O)CC[C@]4(C)C3=CC[C@]12C,P-388,,,32.99 µM
C#C[C@@H](O)C1=C[C@@H](n2cnc3c(N)ncnc32)[C@H](O)[C@@H]1O,P4,,,>69 µM
CCCCCC1CC(O)CC(=O)O1,MCF-7,MTT,,1600 µg/mL
OC[C@H]1O[C@@H](n2cnc3c(NC4CCCCCC4)cc(Cl)nc32)C[C@@H]1O,Sheep chondrocytes G81092,,,230 µM
CC[C@@]1(O)C(=O)OCc2c1cc1n(c2=O)Cc2cc3ccccc3nc2-1,NCI-H460,,,0.002 µM
COc1nc(OC(F)(F)F)c(NC(=O)C2CCC3C4CN(C(=O)OC(C)(C)C)C5=CC(=O)CC[C@]5(C)C4CC[C@]23C)cc1Br,hERG,ATP / luminescence,,>30 µM
Nc1nc(Cl)nc2c1ncn2[C@H]1CC[C@@H](CO)O1,Sheep chondrocytes G81092,MTT,,195 µM
CCn1cc(/C=N/Nc2nncs2)c2ccccc21,Fibroblast L929 cell line,MTT,24 h,>100 µg/mL
OC[C@H]1O[C@@H](n2cnc3c(NC4CC4)nc(Cl)nc32)C[C@@H]1O,Sheep chondrocytes G81092,,,234 µM
Nc1ncnc2c1ccn2[C@@H]1CC[C@@H](O)[C@H]1O,P4,,,>42 µM
CSc1ccc(C(=O)NC2N=C(c3ccccc3)c3ccccc3NC2=O)cc1,HEP-2,,,6.2 µM
CCCn1cc(/C=N/Nc2nncs2)c2ccccc21,Fibroblast L929 cell line,MTT,24 h,>100 µg/mL
Nc1nccc2c1ncn2[C@@H]1C=C(CO)[C@@H](O)[C@H]1O,P4,,,76 µM
C/C(=C\C=C\[C@@H](C)[C@H]1CC[C@@]2(C)C3CC[C@H]4C(C)(C)C(=O)CC[C@]4(C)[C@@]3(O)[C@@H](O)C[C@]12C)C(=O)O,P-388,,,33.53 µM
[2H][C@]1(O)C[C@H](n2cnc3c(N)nc(F)nc32)O[C@]1(C#C)CO,MT4-GFP,luminescence,,>42 µM
Brc1ccc(Cn2cc(/C=N/Nc3nncs3)c3ccccc32)cc1,Fibroblast L929 cell line,MTT,24 h,>100 µg/mL
O=C(NCc1ccc(Br)cc1)NC1N=C(c2ccccc2)c2ccccc2NC1=O,HEP-2,,,2 µM
OC[C@@H]1C[C@@H](O)[C@H](n2cnc3c(NC4CCCCCC4)cc(Cl)nc32)O1,Sheep chondrocytes G81092,MTT,,145 µM

The first 4 rows once more:

| compound | cells | read by | conditions | result |
|---|---|---|---|---|
| Nc1nc(Cl)nc2c1ncn2[C@@H]1O[C@H](CO)[C@@H](O)[C@H]1O | MDBK |  |  | <50 µM |
| C=C[C@]1(C)C=C2C(=O)c3c(NC=O)cccc3C(C)(C)[C@H]2C[C@H]1O | IMR90 |  |  | >100 µM |
| CC(C)C[C@@H]1NC(=O)[C@H](Cc2c[nH]c3ccccc23)NC(=O)[C@@H](CCCCN)NC(=O)[C@H](CO)NC(=O)[C@H](C(C)C)NC(=O)[C@@H](CC(C)C)NC1=O | Lung carcinoma cells | MTT |  | >30 µM |
| OC[C@H]1O[C@@H](n2cnc3c(NC4CCCCCC4)ncnc32)[C@H](O)[C@@H]1O | Sheep chondrocytes G81092 | MTT |  | 126 µM |

Conditions beyond the fields shown may differ between rows. An empty or dashed field is not shown.